Holding throughout (details): remark: other sources report otherwise
Assay [1] deals with Bt-SARS-CoV-2 Spike Protein (RBD)([…]).hFc (SARS-CoV-2). Briefly: Luminex bead assay, antibody supernatant, biotinylated antigen on microspheres.
Assay [2] has as its target Bt-SARS-CoV-2 Spike Protein (RBD)([…]).mFc (SARS-CoV-2). Described as above.
Assay [3] has as its target SARS-CoV-2 Spike Protein (RBD)([…]).mmH (SARS-CoV-2).
In assay [4] the target is SARS-COV-2-S RBD extracellular domain expressed with a C-terminal myc-myc-hexahistidine (SARS-COV-2 RBD-MMH) (SARS-CoV-2).

“And” between values parts separate entries of the source, which are not always exact repeats. Equal values may be shown once.

B1: mAb10939 (antibody)
heavy: EVQLVESGGGLVQPGGSLRLSCAASGLTVSSNYMNWVRQVPGKGLEWVSVIYSGGSKFYVDSVKGRFTISRHNSKNTLYLQMNSLRPEDTAVYYCTRDAQYYGMDVWGQGTTVTVSSASTKGPSVFPLAPSSKSTSGGTAALGCLVKDYFPEPVTVSWNSGALTSGVHTFPAVLQSSGLYSLSSVVTVPSSSLGTQTYICNVNHKPSNTKVDKKV[human IgG1 Fc left out here]
light: DIQMTQSPSSLSASVGDRVTITCRASQSISTYLHWYQQKPGEAPKLLIYAASSLQSGVPSRFSGSGSGTDFTLTISSLQPEDFATYYCQQSYSTPPEIFGQGTKLEIKRTVAAPSVFIFPPSDEQLKSGTASVVCLLNNFYPREAKVQWKVDNALQSGNSQESVTEQDSKDSTYSLSSTLTLSKADYEKHKVYACEVTHQGLSSPVTKSFNRGEC
For the molecule B1, the Binding signal (MFI) in assay [1] was 28900 MFI; in assay [2] it was 18700 MFI; in assay [3] it was 32200 MFI and 30900 MFI. For the same molecule, the t½ (commonly the time in which the quantity being followed falls by half) in assay [4] amounted to 1 min.
